What follows are substances tested on Histoplasma capsulatum.

Row | Substance | MIC [µg/mL]
1 | 1-[(1R,2R)-2-(2,4-Difluorophenyl)-2-hydroxy-1-methyl-3-(1H-1,2,4-triazol-1-yl)propyl]-3-[4-(1H-1-tetrazolyl)phenyl]-2-(1H,3H)-thioimidazolone | 0.03
2 | 1-[(1R,2R)-2-(2,4-Difluorophenyl)-2-hydroxy-1-methyl-3-(1H-1,2,4-triazol-1-yl)propyl]-3-[4-(2,2,3,3-tetrafluoropropoxy)phenyl]-2-(1H,3H)-thioimidazolone | 0.25
3 | 1-[(1R,2R)-2-(2,4-Difluorophenyl)-2-hydroxy-1-methyl-3-(1H-1,2,4-triazol-1-yl)propyl]-3-[4-(2H-2-tetrazolyl)phenyl]-2-(1H,3H)-thioimidazolone | 0.25

— patent US20050131041A1, “Azole derivatives as antifungal agents” (priority 2002, published 2005)
